Compound potency records, mixed from different reports. Data source: NIAID ChemDB in PubChem.

All rows: whole-cell or culture tests; agent: HIV-1; cell line: CEM; read by: syncytia; endpoint: EC50

Lines come from different laboratories, so protocols vary.

SMILES | strain | mutations | result
COc1ccc(NC(=S)c2ccsc2C)cc1OCC=C(Cl)Cl | TSAO-m3T-resistant (RT E138K) | RT-E138K | 0.13 µg/mL
Cc1cc(C)cc(Cc2c(C(C)C)c(=O)[nH]c(=O)n2COCCO)c1 | IIIB |  | 0.17 µM
Cc1sccc1C(=O)Nc1ccc(Cl)c(OCC=C(Cl)Cl)c1 | TIBO R82150-resistant (RT L100I) | RT-L100I | 0.53 µg/mL
CCCCCOC(=S)Nc1ccc(Cl)c(C(=O)OC(C)C)c1 |  | RT-E138K | 17.45 µM
C=C(Cl)COc1cc(NC(=S)c2ccoc2C)ccc1Cl | IIIB |  | 0.047 µg/mL
COCCOC(=O)c1cc(NC(=O)C2=C(C)OCCS2)ccc1Cl | IIIB |  | 0.6 µg/mL
CCOC(=O)c1cc(NC(=S)OC(C)C)ccc1SC |  | RT-L100I | 11.17 µM
CCOCn1c(Sc2ccccc2)c(CC)c(=O)[nH]c1=S | IIIB | RT-Y181C | 1.5 µM
COC(=O)c1cc(NC(=S)OC(C)C)ccc1Cl | IIIB |  | 1.738 µM
COC(=O)c1cc(NC(=O)C2=C(C)OCCS2)ccc1Cl | TSAO-resistant (RT E138K) | RT-E138K | >10 µg/mL
Cc1occc1C(=O)Nc1ccc(Cl)c(SCC=C(Cl)Cl)c1 | TIBO R82150-resistant (RT L100I) | RT-L100I | 0.93 µg/mL
CCC1=C(C(=O)Nc2ccc(Cl)c(C(=O)OC(C)C)c2)SCCO1 | Nevirapine-resistant (RT V106A) | RT-V106A | 6 µg/mL
CSC(=Nc1ccc(Cl)c(C(=O)OC(C)C)c1)OC(C)C |  | RT-Y181C | >30.13 µM
CCc1c(Sc2cc(C)cc(C)c2)n(COCc2ccccc2)c(=S)[nH]c1=O | IIIB (TIBO 82150) (RT-L100I) | RT-L100I | 0.008 µM
C/C=C\COc1cc(NC(=S)OC(C)C)ccc1OC |  | RT-E138K | 4.976 µM
CC(C)OC(=O)c1cc(NC(=S)OC(C)C)ccc1Cl | IIIB | RT-E138K | 1.24 µM
CC(C)OC(=O)c1cc(NC(=S)OC(C)C)ccc1Cl | IIIB | RT-E138K | 1.24 µM
COc1ccc(C)cc1CS(=O)(=O)c1cccc[n+]1[O-] | IIIB | RT-E138K | 48 µg/mL
CCOC(=O)C(C)Oc1cc(NC(=S)OC(C)C)ccc1Cl | IIIB |  | 1.879 µM
Cc1ccc(C)c(CS(=O)c2ccc(Cl)c[n+]2[O-])c1 | IIIB | RT-L100I | 4.6 µg/mL
CN1CCN(C(=O)c2ccc3c(=O)c4ccccc4[nH]c3c2)CC1 | IIIB |  | 0.007 µg/mL
Cc1ccc(C)c(CS(=O)(=O)c2cccc[n+]2[O-])c1 | IIIB |  | 5.3 µg/mL
CC(C)c1c(Sc2ccccc2)n(COCc2ccccc2)c(=O)[nH]c1=O | IIIB | RT-Y181I | 5 µM
CC1=C(C(=O)Nc2ccc(Cl)c(OCC=C(Cl)Cl)c2)SCCO1 | TIBO R82150-resistant (RT L100I) | RT-L100I | 2 µg/mL
CC1=C(C(=O)Nc2ccc(Cl)c(C(=O)OC(C)C)c2)SCCO1 | IIIB | RT-V179D | 0.94 µM
CCc1c(Sc2cc(C)cc(C)c2)n(COCCO)c(=S)[nH]c1=O | IIIB | Nevirapine resistant (RT Y181C) | 0.38 µM
CCOC(=O)c1cc(NC(=O)C2=C(C)OCCS2)ccc1Cl | TSAO-resistant (RT E138K) | RT-E138K | 6.5 µg/mL
COc1ccc(NC(=S)c2ccoc2C)cc1OCC=C(Cl)Cl | Pyridone-resistant (RT Y181C) | RT-Y181C | 0.25 µg/mL
CC1=C(C(=O)Nc2ccc(Cl)c(C(=O)OC(C)C)c2)SCCO1 |  | RT-E138K | ≥56.2 µM
CC1=C(C(=O)N(C)c2ccc(Cl)c(C(=O)OC(C)C)c2)SCCO1 | PYR-resistant (RT Y181C) | RT-Y181C | >10 µg/mL
C/C(Cl)=C/COc1cc(NC(=S)c2ccoc2C)ccc1Cl | TIBO R82913-resistant (RT K103N) | RT-K103N | 0.09 µg/mL
Cc1cc(C)cc(Sc2c(C(C)C)c(=O)[nH]c(=S)n2COCCO)c1 | IIIB | RT-Y188H | 1.4 µM
CCCCOC(=O)c1cc(NC(=O)C2=C(C)OCCS2)ccc1Cl | TIBO-resistant (RT L100I) | RT-L100I | 0.7 µg/mL
CCOCn1c(Sc2ccccc2)c(C(C)C)c(=O)[nH]c1=S | IIIB | RT-Y181C | 0.89 µM
CC(C)=CCOc1cc(NC(=S)c2ccoc2C)ccc1Cl | IIIB |  | 0.009 µM
C=C(Cl)COc1cc(NC(=S)c2ccoc2C)ccc1C | IIIB |  | 0.09 µg/mL

3 of the rows above, restated:

{"SMILES": "CCOC(=O)c1cc(NC(=S)OC(C)C)ccc1SC", "mutations": "RT-L100I", "result": "11.17 µM"}
{"SMILES": "Cc1occc1C(=O)Nc1ccc(Cl)c(SCC=C(Cl)Cl)c1", "strain": "TIBO R82150-resistant (RT L100I)", "mutations": "RT-L100I", "result": "0.93 µg/mL"}
{"SMILES": "C=C(Cl)COc1cc(NC(=S)c2ccoc2C)ccc1C", "strain": "IIIB", "result": "0.09 µg/mL"}

ECn is the concentration giving n% inhibition of infection, replication or growth. Blank or dashed fields: not listed here.